The exact form of at least one protein or probe is not confirmed.

We go through one sequence from article PMC5945682.

The data set relates to SrpA (Pseudomonas aeruginosa PAK). Kind of data set: EMSA. As to conditions: 2x binding buffer: 40 mM Tris-HCl pH 7.5, 4 mM MgCl2, 100 mM NaCl, 10% glycerol, 2 mM DTT, 0.2 mg/ml BSA, 0.02 mg/ml poly(dI-dC), 1 mM EDTA; 25 C 30 min; SrpA 0-7.42 uM; recombinant protein; residues 1-84; protein details: His-tag (pQE30); label: Cy3; probe letters rebuilt from the primers and the genome; part of a longer molecule. In general terms: In EMSA bound probe runs differently from free probe, usually more slowly.

Regarding “CCTCTTAATCAAGGATGTGAGGCGACGGCGATCTGTTTTAAAACTGAAGCTTGCCAAGATAATCACACCCCATGCTAAGGTCTTGAGGACCGGGGTTGCACTGGTTGTAAAGCTTCTCCCGTCTTGCAAAACCGATGTAGAATTCCCGTGTTACGTTGTCGGGGTCTAGGTCATTAGCCAGCATATCCGATTTGGAGATACCGCCAGCATATGGCACGGCCAAAGAAATTGCAATATTCGGGTCTTTGAGAATGAG (double strand) [gp058 promoter]”, the binding result is listed as “binds”.
